Source: the NIST ThermoML archive (doi:10.1016/j.fluid.2013.01.002)
± gives the expanded uncertainty stated by the source.

What was measured:
[1] = xn = mol fraction of the nth substance listed; conditions: 298.15 K, 101 kPa, Liquid, Vibrating tube method
[2] = refractive index (Na D-line) (dimensionless); xn = mol fraction of the nth substance listed; conditions: 298.15 K, 101 kPa, Liquid, Standard Abbe refractometry
[3] = 298.15 K; 101.33 kPa; Liquid; Vibrating tube method
[4] = refractive index (Na D-line) (dimensionless); conditions: 298.15 K; 101.33 kPa; Liquid; Standard Abbe refractometry

CCCCOP(=O)(OCCCC)OCCCC [tributyl phosphate] + CCCCCCCCCCC
Conditions | mass density, [1] [kg/m3] | refractive index, [2]
x1 = 0.05 | 751.14 ± 0.14 | 1.415 ± 0.0004
x1 = 0.0999 | 765.09 ± 0.14 | 1.4152 ± 0.0004
x1 = 0.2001 | 792.4 ± 0.13 | 1.4158 ± 0.0004
x1 = 0.2999 | 818.47 ± 0.12 | 1.4163 ± 0.0004
x1 = 0.3999 | 843.46 ± 0.11 | 1.417 ± 0.0004
x1 = 0.5001 | 867.4 ± 0.1 | 1.4178 ± 0.0004
x1 = 0.5998 | 890.24 ± 0.09 | 1.4188 ± 0.0004
x1 = 0.6997 | 912.19 ± 0.08 | 1.4197 ± 0.0004
x1 = 0.7999 | 933.33 ± 0.08 | 1.4206 ± 0.0004
x1 = 0.8998 | 953.53 ± 0.07 | 1.4216 ± 0.0004
x1 = 0.9503 | 963.33 ± 0.07 | 1.4219 ± 0.0004

CCCCOP(=O)(OCCCC)OCCCC [tributyl phosphate] + CCCCCCCCCCCC
Conditions | mass density, [1] [kg/m3] | refractive index, [2]
x1 = 0.0497 | 758.4 ± 0.14 | 1.4193 ± 0.0004
x1 = 0.0999 | 771.06 ± 0.13 | 1.4192 ± 0.0004
x1 = 0.2003 | 796.01 ± 0.12 | 1.4192 ± 0.0004
x1 = 0.3001 | 820.28 ± 0.12 | 1.4194 ± 0.0004
x1 = 0.4001 | 843.97 ± 0.11 | 1.4196 ± 0.0004
x1 = 0.5 | 867.06 ± 0.1 | 1.4199 ± 0.0004
x1 = 0.6 | 889.46 ± 0.09 | 1.4204 ± 0.0004
x1 = 0.7003 | 911.2 ± 0.08 | 1.4208 ± 0.0004
x1 = 0.8001 | 932.09 ± 0.08 | 1.4212 ± 0.0004
x1 = 0.9004 | 952.57 ± 0.07 | 1.4217 ± 0.0004
x1 = 0.9503 | 962.59 ± 0.07 | 1.4221 ± 0.0004

CCCCOP(=O)(OCCCC)OCCCC [tributyl phosphate]
Conditions | mass density [kg/m3] | refractive index
[3] | 972.69 ± 0.05 | –
[4] | – | 1.4224 ± 0.0004

CCCCOP(=O)(OCCCC)OCCCC [tributyl phosphate] + CCCCCCCCCCCCO
Conditions | mass density, [1] [kg/m3] | refractive index, [2]
x1 = 0.05 | 838.29 ± 0.1 | 1.4392 ± 0.0004
x1 = 0.1002 | 846.1 ± 0.1 | 1.4377 ± 0.0004
x1 = 0.2 | 861.3 ± 0.09 | 1.4352 ± 0.0004
x1 = 0.3 | 876.21 ± 0.09 | 1.4329 ± 0.0004
x1 = 0.4 | 890.84 ± 0.08 | 1.4308 ± 0.0004
x1 = 0.5002 | 905.19 ± 0.08 | 1.429 ± 0.0004
x1 = 0.6002 | 919.33 ± 0.07 | 1.4274 ± 0.0004
x1 = 0.6997 | 933.02 ± 0.07 | 1.4259 ± 0.0004
x1 = 0.8001 | 946.59 ± 0.06 | 1.4246 ± 0.0004
x1 = 0.9004 | 959.86 ± 0.06 | 1.4234 ± 0.0004
x1 = 0.9502 | 966.27 ± 0.06 | 1.4229 ± 0.0004
